Measured values from several laboratories, pooled; numbers as filed in NIAID ChemDB.

Shared fields: growth or infection tests; agent: Mycobacterium tuberculosis

MIC bound comes from a single tested concentration. ECn: concentration that inhibits the pathogen or its effect by n%. Percent inhibition refers to the dose given; in toxicity tests it is the harm to the cells. MIC50, MIC90 and the like: level of inhibition, or share of isolates inhibited. Blank or dashed fields: not listed here. Two numbers with a dash give a range or band. Conditions beyond the fields shown may differ between rows.

SMILES	read by	mutations	strain or isolate	dose	conditions	read-out	value
CCN(CC)CCNC(=O)c1cccc([N+](=O)[O-])c1			H37Rv			MIC	50 µg/mL
Cc1nc2scc(-c3ccco3)c2c(=O)n1/N=C/C1CC1			CNCTC MY331/88			MIC	66 µM
CCc1cc(C(N)=S)ccn1			H37Rv (drug-susceptible)			MIC	32 µM
COc1ccc(-n2cc(Cn3nc(-c4ccccc4)c4c3CCN(C(=O)Nc3ccccc3)C4)nn2)cc1OC	visual reading		H37Rv			MIC	186.7 µM
CCc1nc2c(F)cc(Cl)cn2c1C(=O)NCc1ccc(N2CCN(S(=O)(=O)C(F)(F)F)C(C(C)C)=N2)c(F)c1	GFP					EC50	0.0046 µM
CCCCC(CC)CN1CN(CC(CC)CCCC)CC(C)(NCCNCCc2ccccc2)C1						MIC	6.25 µM
NC(=S)c1ccc(Cl)cc1			H37Rv (INH-resistant)			MIC	512 µM
c1ccc([C@H]2C[C@@H]2NCCNC2CCCCCCC2)cc1						MIC	25 µM
Cn1c2ccccc2c2cc(C=NNc3nc(-c4cc5ccccc5oc4=O)cs3)ccc21	fluorescence		H37Rv			EC50	>25 µM
CC(NCCNCCc1ccccc1Cl)c1cccc2ccccc12						MIC	25 µM
COc1cc(OC)c2c(c1)Oc1cc(OC)cc(OC)c1C2	BACTEC		H37Rv	12.5 µg/mL		inhibition	-33%
C[C@H]1COc2c(N3CCN(C)CC3)c(F)cc3c(=O)c(C(=O)O)cn1c23			5S			MIC	0.5 µg/mL
Cc1nc2scc(-c3ccco3)c2c(=O)n1NC(=O)C1CCCCC1			CNCTC MY331/88			MIC	203 µM
C=C1C(=O)OC2CC3(C)C(O)CCC(=C)C3CC12	BACTEC		H37Rv	12.5 µg/mL		inhibition	57%
Cn1c2ccccc2c2cc(C=NNc3nc(-c4cccc([N+](=O)[O-])c4)cs3)ccc21	fluorescence		H37Rv			EC90	>200 µM
NC(=O)c1cccc([C@@H]2O[C@H](CO)[C@@H](O)[C@H]2O)c1	BACTEC		H37Rv	12.5 µg/mL		inhibition	14%
Cc1ccc(-n2cc(Cn3nc(-c4ccccc4)c4c3CCN(C(=O)Nc3ccccc3)C4)nn2)cc1	visual reading		H37Rv			MIC	25.53 µM
Cn1c2ccccc2c2cc(C=NNc3nc(-c4ccc(Cl)cc4)cs3)ccc21	fluorescence		H37Rv			MIC	>200 µM
COc1ccc(CNCCNC23CC4CC(CC(C4)C2)C3)c(OC)c1						MIC	25 µM
CCN(CC)CCCN=c1cc2n(-c3ccc(Cl)c(Cl)c3)c3ccccc3nc-2cc1Nc1ccc(Cl)c(Cl)c1			29		multidrug-resistant	MIC	≤0.06 µg/mL
Nc1nc(-c2ccc(Cl)c(Cl)c2)cc(-c2cc3cc(Br)ccc3nc2Cl)n1	broth dilution		H37Rv	6.25 µg/mL		inhibition	16%
Cn1c2ccccc2c2cc(C=NNc3nc(-c4ccccc4O)cs3)ccc21	fluorescence		H37Rv			EC50	39 µM
NC(=O)c1cnccn1			T494			MIC	>900 µg/mL
CC(=O)Nc1ccc2cc(-c3ccc(Cl)cc3)c3nnnn3c2n1	BACTEC		H37Rv			MIC	≥12.5 µg/mL
CCCCC(CC)CN1CN(CC(CC)CCCC)CC(C)(NCCN[C@H](CO)CCSC)C1						MIC	50 µM
O=C(Nc1ccccc1)N1CCc2c(c(-c3ccccc3)nn2Cc2cn(-c3ccccc3I)nn2)C1	visual reading		H37Rv			MIC	166 µM
O=C1NC(=O)c2ncccc21	BACTEC		H37Rv	12.5 µg/mL		inhibition	14%
O=C(/C=C/c1cc2cc(F)ccc2nc1Cl)c1cccc([N+](=O)[O-])c1	broth dilution		H37Rv	6.25 µM		inhibition	9%
Nc1ccc2nc3cc(Nc4ccccc4)c(=Nc4ccccc4)cc-3n(-c3ccccc3)c2c1	BACTEC		H37Rv	12.5 µg/mL		inhibition	100%
CCc1nc2ccc(Cl)cn2c1C(=O)NCc1ccc(N2CCN(Cc3nc(C(F)(F)F)cs3)C=N2)cc1	GFP					EC50	0.12 µM
Cc1cc2nc(CCC3CCCCC3)[nH]c2cc1C	visual reading / absorbance	6B MmpL3 (V240A)	H37Rv			MIC90	1.93 µM
Cc1cc(=O)cc2sc3c(C)cccc3nc1-2	BACTEC		H37Rv			MIC bound	≤12.5 µg/mL
CC(=O)NC[C@H]1CN(c2ccc(N3CCOCC3)c(F)c2)C(=O)O1			6S			MIC	0.5 µg/mL
COc1ccc2nc3cc(Cl)ccc3c(Nc3cc(CN4CCCC4)c(O)c(CN4CCCC4)c3)c2n1	resazurin	dprE1 G387S	NTB1			MIC	5–10 µg/mL
c1ccc2c(c1)nnn1c3cnccc3nc21	BACTEC		H37Rv			MIC bound	≤12.5 µg/mL
CCCCC(CC)CN1CN(CC(CC)CCCC)CC(C)(NCCN[C@@H](CO)[C@@H](O)c2ccc(SC)cc2)C1						MIC	25 µM
NNC(=O)c1ccncc1			H37Rv (INH-resistant)			MIC	≥1024 µM
CC/C=c1\[nH]c(=O)/c(=C/c2ccc([N+](=O)[O-])cc2)[nH]c1=O	BACTEC		H37Rv	12.5 µg/mL		inhibition	-9%
COC1=NN(c2ccc(CNC(=O)c3c(C(F)F)nc4ncccn34)cc2F)CCN1S(=O)(=O)C(F)(F)F	GFP					EC50	0.0035 µM
Cc1ccc(Nc2cc(Cl)nc(N)n2)cc1Cl	BACTEC		H37Rv			MIC bound	≤12.5 µg/mL
CC(C)C1C=C2C(C(=O)C1=O)[C@@]1(C)CCCC(C)(C)[C@@H]1C[C@@H]2O			H37Rv	12.5 µg/mL		inhibition	99%
CO[C@H]1/C=C/O[C@@]2(C)Oc3c(C)c(O)c4c(O)c(c(/C=N/N5CCN(C)CC5)c(O)c4c3C2=O)NC(=O)/C(C)=C\C=C\[C@H](C)[C@H](O)[C@@H](C)[C@@H](O)[C@@H](C)[C@H](OC(C)=O)[C@@H]1C	resazurin		H37Rv			MIC	0.0039 µM
N#Cc1c(-c2ccc(Cl)c(Cl)c2)cc(-c2cc3cc(Br)ccc3nc2Cl)nc1N	broth dilution		H37Rv	6.25 µg/mL		inhibition	3%
CCCCC(CC)CN1CN(CC(CC)CCCC)CC(C)(NCCNCc2cccc3ccccc23)C1						MIC	25 µM
O=C(NNC(=O)c1ccncc1)c1ccncc1	BACTEC		H37Rv	12.5 µg/mL		inhibition	95%
CC[N+](C)(CC)CCNC(=O)c1cc([N+](=O)[O-])cc([N+](=O)[O-])c1			N353			MIC	50 µg/mL
CN[C@@H]1[C@H](O[C@H]2[C@H](O[C@H]3[C@H](O)[C@@H](O)[C@H](N=C(N)N)[C@@H](O)[C@@H]3N=C(N)N)O[C@@H](C)[C@]2(O)C=O)O[C@@H](CO)[C@H](O)[C@H]1O			2 isolates			MIC	>1000 µg/mL
CCc1nc2c(F)cc(C)cn2c1C(=O)NCc1ccc(N2CCN(S(=O)(=O)C(F)(F)F)C=N2)c(F)c1	GFP					EC50	0.00039 µM
N#Cc1c(-c2ccc(Cl)cc2Cl)cc(-c2cc3cc(F)ccc3nc2Cl)nc1N	broth dilution		H37Rv	6.25 µg/mL		inhibition	8%
CC(C)c1c(O)ccc2c1CCC1C(C)(C)CCC[C@]21C			H37Rv	12.5 µg/mL		inhibition	0%
NC(=O)c1cnccn1			TB213		7 d	EC50	<800 µg/mL
Cc1cc(=O)[nH]c2cc3oc4ccccc4c3cc12	BACTEC		H37Rv	12.5 µg/mL		inhibition	49%
CCOC(=O)c1c(-c2ccco2)csc1NC(C)=O			CNCTC MY331/88			MIC	>1000 µM
Cc1cc(C)c(C(N)=S)cn1			H37Rv (drug-susceptible)			MIC	2048 µM
CC[C@@H](CO)NCCN[C@@H](CC)CO	visual reading / absorbance	EJMCh6A MmpL3  (V684A)	H37Rv			MIC90	7.7 µM
Cc1ccc(NC(=O)c2cc([N+](=O)[O-])cc([N+](=O)[O-])c2)cc1Cl	resazurin		H37Rv			MIC	1.56 µg/mL
COc1ccc(CNCCNCCc2ccccc2F)c(OC)c1						MIC	25 µM
COc1ccc(-n2cc(Cn3nc(-c4ccccc4)c4c3CCN(C(=O)Nc3ccccc3)C4)nn2)cc1	visual reading		H37Rv			MIC	24.72 µM
NC(=S)c1ccccc1			H37Rv (drug-susceptible)			MIC	1024 µM
Cn1c2ccccc2c2cc(C=NNc3nc(-c4ccc([N+](=O)[O-])cc4)cs3)ccc21	fluorescence		H37Rv			EC50	>200 µM
CCN(CC)CCNC(=O)c1cc(Cl)cc([N+](=O)[O-])c1			N353			MIC	50 µg/mL
CCCCCSc1nc2c(=O)[nH][nH]c(=O)c2n1Cc1ccccc1	BACTEC		H37Rv			MIC bound	>12.5 µg/mL
COC1=NN(c2ccc(CNC(=O)c3c(C(F)F)nc4ccccn34)cc2)CCN1S(=O)(=O)C(F)(F)F	GFP					EC50	0.083 µM
CC1=CCC2N=C(c3ccccc3)CC2(C)C1=O	BACTEC		H37Rv			MIC bound	>6.25 µg/mL
Cn1c2ccccc2c2cc(C=NNc3nc(-c4ccc(F)cc4)cs3)ccc21	fluorescence		H37Rv			EC50	61 µM
Cc1c2sc3ccccc3nc-2c2ccccc2c1=O	BACTEC		H37Rv	12.5 µg/mL		inhibition	99%
COC1=CC2C(=NC(C)=C2C(=O)NCc2ccc(N3CCN(S(=O)(=O)C(F)(F)F)C(OC)=N3)cc2)N=C1	GFP					EC50	0.01 µM
O=C(CCCN1CCN2Cc3[nH]c4ccccc4c3CC2C1)c1ccc(F)cc1	resazurin		H37Rv			MIC bound	>6.25 µg/mL
CO[C@H]1/C=C/O[C@@]2(C)Oc3c(C)c(O)c4c(O)c(c5c(c4c3C2=O)NC2(CCN(CC(C)C)CC2)N=5)=NC(=O)/C(C)=C\C=C\[C@H](C)[C@H](O)[C@@H](C)[C@@H](O)[C@@H](C)[C@H](OC(C)=O)[C@@H]1C			H37RV-PLN-SIG			MIC	≤0.015 µg/mL
CNc1ccc(C(N)=S)cc1			H37Rv (INH-resistant)			MIC	32 µM
CCCCC(CC)CN1CN(CC(CC)CCCC)CC(C)(NCCNCCc2cccc(F)c2)C1						MIC	12.5 µM
CCOc1ccc(C(N)=S)cc1			H37Rv			MIC	512 µM
C[C@]1(COc2ccc(N3CCC(Oc4ccc(OC(F)(F)F)cc4)CC3)cc2)Cn2cc([N+](=O)[O-])nc2O1			56 strains (EMB-susceptible)			MIC90	0.012 µg/mL
COC12OCCN(C)C1=CC(=O)C1(C)N=NCC12	BACTEC		H37Rv			MIC bound	>12.5 µg/mL
O=C(NCc1ccc(N2CCN(S(=O)(=O)C(F)(F)F)C=N2)c(F)c1)c1c(C(F)F)nc2cc(F)c(Cl)cn12	GFP					EC50	0.0042 µM
Cc1nc2scc(-c3ccco3)c2c(=O)n1NC(=O)c1ccc(F)cc1			CNCTC MY331/88			MIC	9 µM
CN(C)C/C=C(/c1ccccc1)c1ccc(-c2ccc(Br)cc2)cc1			H37Ra			MIC	8 µg/mL
CC(Cl)[C@@]1(O)C[C@@H](C)[C@@](C)(O)C(=O)OCC2=CCN3CC[C@@H](OC1=O)[C@@H]23.Cl	BACTEC		H37Rv			MIC	≥128 µg/mL
C/C=C/C/C=C/CCC(=O)[C@H]1O[C@H]1C(N)=O			Isolate H155			MIC	≤1.5 µg/mL
Brc1ccc2nc(CCC3CCCCC3)[nH]c2c1	visual reading / absorbance	6C MmpL3 (G253E)	H37Rv			MIC90	22.8 µM
NNC(=O)c1ccncc1	resazurin	mmpL3 V681I	DR1			MIC	0.025 µg/mL
c1cc2c(cc1[C@H]1OC[C@H]3[C@@H]1CO[C@H]3c1ccc3c(c1)OCO3)OCO2	BACTEC		H37Rv	128 µg/mL		inhibition	97%
NC(=S)c1ccncc1			H37Rv (drug-susceptible)			MIC	128 µM